For one substance, Kd results are on record in PMC8669038, “Infection of wild-type mice by SARS-CoV-2 B.1.351 variant indicates a possible novel cross-species transmission route” (2021).

The target in this experiment is mouse angiotensin-converting enzyme 2 (mACE2) (mouse) (UniProt Q8R0I0). Kind of experiment: SPR. In general terms: SPR reads the build-up and loss of mass on a sensor chip optically.

Consider “S1 (B.1.1.7) of SARS-CoV-2 spike protein (domain or fragment)”, for which the Kd turned out to be 2.22 µM.

The Kd is the concentration at which binding is half-saturated. Low values mean a tighter complex, high ones a looser complex.
